Measured values from several laboratories, pooled; numbers as filed in NIAID ChemDB.

All rows: growth or infection tests; species: Herpes simplex virus 1; cell line: E6SM; read-out: EC50

ECn: concentration that inhibits the pathogen or its effect by n%. Blank or dashed fields: not listed here. Neighbouring rows are from separate reports.

compound | strain or isolate | method | result
CC1(C)[C@@H](CCO)C[C@H]1n1cnc2c(=O)[nH]cnc21 | KOS | cytopathic effect | >400 µg/mL
CC=NC(=N)c1nc(-c2cccc(C)c2)n(Cc2ccccc2)n1 | VMW 1837 | cytopathic effect | >4 µg/mL
Cc1cc([C@H]2C[C@H](O)[C@@H](CO)O2)c(Cl)cc1F | McIntyre | cytopathic effect | >400 µg/mL
CC1(CO)CCC(Cn2ccc(=O)[nH]c2=O)C1(C)C | KOS | cytopathic effect | >400 µg/mL
CC1(C)[C@@H](CO)CC[C@@]1(C)Cn1ccc(=O)[nH]c1=O | KOS | cytopathic effect | >400 µg/mL
Cc1ccn2c(C3OCCS3)cnc2c1 | VMW 1837 (TK+/TK-) |  | >1000 µM
Cc1ccn2c(CSCCO)cnc2c1 | KOS | cytopathic effect | >200 µg/mL
CCC(Sc1ncnc2c1cnn2CCCCO)C(N)=O | B2006 (TK-) | cytopathic effect | >400 µg/mL
COc1cc2c(cc1OC)[C@@H]1C(N)CSCON1CC2 | VMW1837 (TK-/TK+) | cytopathic effect | 0.02 µg/mL
OC[C@H]1O[C@H](c2cc(Cl)c(F)cc2F)C[C@@H]1O | KOS | cytopathic effect | >400 µg/mL
CC=NC(=N)c1nc(-c2cccc(OC)c2)n(COCCO)n1 | KOS | cytopathic effect | 300 µg/mL
N#Cc1cncc([C@@H]2O[C@H](CO)[C@@H](O)[C@@H]2O)c1 | KOS | cytopathic effect | ≥100 µg/mL
C=C(N=CC)c1nc(-c2ccccc2)n([C@@H]2O[C@H](CO)[C@@H](O)[C@H]2O)n1 | VMW 1837 | cytopathic effect | >200 µg/mL
Cc1cccn2c(C3OCCS3)cnc12 | VMW 1837 (TK+/TK-) |  | >1000 µM
CC1(C)[C@@H](CCO)C[C@H]1n1nnc2c(=O)[nH]cnc21 | KOS | cytopathic effect | >200 µg/mL
C#C[C@@H](O)C1=C[C@@H](n2cnc3c(N)ncnc32)[C@H](O)[C@@H]1O | KOS | cytopathic effect | >400 µg/mL
O=c1[nH]c(=O)n([C@H]2C[C@H](O)[C@@H](COP(=O)([O-])OP(=O)([O-])OC[C@@H]3OC(O)[C@H](O)[C@H](O)[C@H]3O)O2)cc1I | B2006 (TK-) | cytopathic effect | 200 µg/mL
CC1(C)[C@@H](CO)CC[C@@]1(C)Cn1cc(Br)c(=O)[nH]c1=O | KOS | cytopathic effect | >400 µg/mL
Nc1nc(F)nc2c1ncn2[C@@H]1C=C(CO)[C@@H](O)[C@H]1O | B2006 (TK-) | cytopathic effect | ≥40 µg/mL
OC[C@H]1O[C@@H](c2cc(F)c(F)cc2F)C[C@@H]1O | VMW 1837 | cytopathic effect | >400 µg/mL
CC1(C)[C@@H](CCO)C[C@H]1n1nnc2c(=O)[nH]c(N)nc21 | KOS | cytopathic effect | 300 µg/mL
Nc1ccn([C@@H]2OC[C@H](CO)[C@H]2O)c(=O)n1 | KOS TK- acyclovir-resistant | cytopathic effect | 240 µg/mL
COC(=O)[C@H](C)NP(=O)(OC[C@H]1O[C@@H](n2cc(/C=C/Br)c(=O)[nH]c2=O)C[C@@H]1O)Oc1ccccc1 | KOS | cytopathic effect | 0.384 µM
OC[C@H]1O[C@H](c2cc(I)c(F)cc2F)C[C@@H]1O | McIntyre | cytopathic effect | >400 µg/mL
O=c1[nH]c(=O)n([C@H]2C[C@H](O)[C@@H](COP(=O)(O)O)O2)cc1I | KOS | cytopathic effect | 0.2 µg/mL
Cc1cn([C@@H]2OC[C@H](CO)[C@H]2N=[N+]=[N-])c(=O)[nH]c1=O | KOS | cytopathic effect | >80 µg/mL
C=C(N=CC)c1nc(-c2ccc(C)cc2)n(C2O[C@H](CO)[C@@H](O)[C@H](O)[C@H]2O)n1 | KOS | cytopathic effect | >200 µg/mL
[N-]=[N+]=NC(CBr)c1cc([C@H]2C[C@H](O)[C@@H](CO)O2)c(F)cc1F | KOS | cytopathic effect | >400 µg/mL
Nc1ccn(CC[C@H](O)CCO)c(=O)n1 | F | cytopathic effect | >400 µg/mL
COC(=O)C(C)(C)NP(=O)(OC[C@H]1O[C@@H](n2cc(/C=C/Br)c(=O)[nH]c2=O)C[C@@H]1O)Oc1ccccc1 | KOS | cytopathic effect | 1.92 µM
Nc1nc(Cl)c2ncn([C@H]3CO[C@@H](CO)C3)c2n1 | VMW1837 (TK-) | cytopathic effect | 300 µg/mL
CC1(CO)CCC(Cn2nnc3c(N)ncnc32)C1(C)C | TK-/B2006 | cytopathic effect | >100 µg/mL
O=c1[nH]c(=O)n([C@H]2C[C@H](O)[C@@H](CO)O2)cc1I | KOS | cytopathic effect | 0.1 µg/mL
NC(=O)c1cncc([C@@H]2O[C@H](CO)[C@@H](O)[C@@H]2O)c1 | KOS | cytopathic effect | ≥100 µg/mL
CO[C@H](CO)[C@@H](O)CCn1cnc2c(N)ncnc21 | McIntyre | cytopathic effect | >400 µg/mL
Nc1nc2c(ncn2[C@H]2CO[C@@H](CO)C2)c(=O)[nH]1 | KOS | cytopathic effect | 2 µg/mL
NC1CSCCN2CCc3c([nH]c4ccccc34)[C@H]12 | KOS | cytopathic effect | 2 µg/mL
Nc1nc2nn(CCOCP(=O)(O)O)nc2c(=O)[nH]1 | VMW1837 (TK-) | cytopathic effect | >400 µg/mL
CO[C@H](CO)[C@@H](O)CCn1ccc(N)nc1=O | McIntyre | cytopathic effect | >400 µg/mL
NC(=O)c1cncc([C@H]2O[C@H](CO)[C@@H](O)[C@@H]2O)c1 | KOS | cytopathic effect | ≥100 µg/mL
Nc1nc(-n2c(-c3ccccc3)nc3ccc(Br)cc3c2=O)nnc1-c1cccc(Cl)c1Cl | KOS ACV (TK-) | cytopathic effect | >80 µg/mL
Cc1cccn2c(C3OCCO3)cnc12 | VMW 1837 (TK+/TK-) |  | >1000 µM
COc1cc(Cc2cnc(-n3c(C)nc4ccc(Br)cc4c3=O)nc2N)cc(OC)c1OC | KOS | cytopathic effect | >80 µg/mL
CC(C)Nc1ncnc2c1ncn2C1C[C@H](CO)[C@@H](CO)C1 | KOS |  | >100 µg/mL
O=[N+]([O-])c1cc([C@H]2C[C@H](O)[C@@H](CO)O2)c(F)cc1F | KOS/ACV-R | cytopathic effect | >400 µg/mL
Cc1cn([C@@H]2OC[C@H](CO)[C@H]2O)c(=O)[nH]c1=O | KOS TK- acyclovir-resistant | cytopathic effect | 240 µg/mL
C=C(N=CC)c1nc(-c2ccc(OC)cc2)n([C@@H]2O[C@H](CO)[C@@H](O)[C@H]2O)n1 | KOS | cytopathic effect | 300 µg/mL
OC[C@H]1O[C@H](c2cncc(Br)c2)[C@@H](O)[C@@H]1O | KOS | cytopathic effect | ≥100 µg/mL
OC[C@H]1O[C@@H](c2cc(/C=C/Br)c(F)cc2F)C[C@@H]1O | KOS ACV-R (TK-) | cytopathic effect | >400 µg/mL
O=c1[nH]cnc2c1ncn2C1C[C@H](CO)[C@@H](CO)C1 | KOS (TK-) |  | >100 µg/mL
O=c1[nH]c(=O)n(C2CC(O[N+](=O)[O-])C(CO)O2)cc1F | KOS ACV-R (TK-) | cytopathic effect | >400 µg/mL
CC(Sc1ncnc2c1cnn2COCCO)C(N)=O | KOS | cytopathic effect | >400 µg/mL
CC1(CO)CCC(Cn2cnc3c(=O)[nH]c(N)nc32)C1(C)C | TK-/B2006 | cytopathic effect | >400 µg/mL
CCC(Sc1ncnc2c1cnn2COCCO)C(N)=O | VWM1837 (TK-) | cytopathic effect | >400 µg/mL
Cc1ccn2c(C3OCCO3)cnc2c1 | B2006 (TK-) |  | >1000 µM
CC1(CO)CCC(Cn2cnc3c(N)nc(N)nc32)C1(C)C | KOS | cytopathic effect | 150 µg/mL
C=C(N=CC)c1nc(-c2ccc(OC)cc2)n(C2O[C@H](CO)[C@@H](O)[C@H](O)[C@H]2O)n1 | VMW 1837 | cytopathic effect | >200 µg/mL
O=C(CC1CCCCC1)N(O)c1ccc(Cl)cc1 | KOS ACV-resistant TK- | cytopathic effect | >80 µg/mL
Nc1ncnc2c1ncn2CC[C@H](O)CCO | KOS | cytopathic effect | >400 µg/mL
Nc1ncnc2c1ncn2[C@@H]1C=C(CO)[C@@H](O)[C@H]1O | B2006 (TK-) | cytopathic effect | 20 µg/mL
Cc1cc([C@H]2C[C@H](O)[C@@H](CO)O2)c(F)cc1Cl | KOS/ACV-R | cytopathic effect | >400 µg/mL
CC(Sc1ncnc2c1cnn2CCCCO)C(N)=O | B2006 (TK-) | cytopathic effect | >400 µg/mL
CC1(CO)CCC(Cn2nnc3c(Cl)nc(N)nc32)C1(C)C | TK-/B2006 | cytopathic effect | >400 µg/mL
CC1(C)[C@@H](CO)CC[C@@]1(C)Cn1cnc2c(=O)[nH]cnc21 | KOS | cytopathic effect | >400 µg/mL
O=C(CCC1CCCCC1)N(O)c1ccc(Cl)cc1 | KOS | cytopathic effect | >16 µg/mL
CC1(C)[C@@H](CCO)C[C@H]1n1nnc2c(N)nc(N)nc21 | TK-/B2006 | cytopathic effect | 70 µg/mL
Cc1cc([C@@H]2C[C@H](O)[C@@H](CO)O2)c(F)cc1F | McIntyre | cytopathic effect | >400 µg/mL
O=P(O)(O)OC[C@H]1OC(O)[C@@H](O)[C@@H](O)[C@@H]1O |  | cytopathic effect | >400 µg/mL
CC=NC(=N)c1nc(-c2cccc(C)c2)n(COCCO)n1 | VMW 1837 | cytopathic effect | >10 µg/mL
C=C[C@H](O)C1=C[C@@H](n2cnc3c(N)ncnc32)[C@H](O)[C@@H]1O | KOS | cytopathic effect | >100 µg/mL
CC1(CO)CCC(Cn2nnc3c(=O)[nH]cnc32)C1(C)C | TK-/B2006 | cytopathic effect | >200 µg/mL
CC=NC(=N)c1nc(-c2ccc(OC)cc2)n(Cc2ccccc2)n1 | VMW 1837 | cytopathic effect | >40 µg/mL

The last 5 rows once more:

compound	strain or isolate	method	result
O=P(O)(O)OC[C@H]1OC(O)[C@@H](O)[C@@H](O)[C@@H]1O		cytopathic effect	>400 µg/mL
CC=NC(=N)c1nc(-c2cccc(C)c2)n(COCCO)n1	VMW 1837	cytopathic effect	>10 µg/mL
C=C[C@H](O)C1=C[C@@H](n2cnc3c(N)ncnc32)[C@H](O)[C@@H]1O	KOS	cytopathic effect	>100 µg/mL
CC1(CO)CCC(Cn2nnc3c(=O)[nH]cnc32)C1(C)C	TK-/B2006	cytopathic effect	>200 µg/mL
CC=NC(=N)c1nc(-c2ccc(OC)cc2)n(Cc2ccccc2)n1	VMW 1837	cytopathic effect	>40 µg/mL